A mixed list of measured activities; the numbers were collected in NIAID ChemDB.

Common to all: tests in culture; organism: Coxsackie virus; endpoint: EC50

Lines come from different laboratories, so protocols vary. An empty or dashed field is not shown. a–b is a range or a potency band. ECn: concentration that inhibits the pathogen or its effect by n%.

structure | strain or isolate | method | cell line | value
CC(C)S(=O)(=O)c1ccc(Oc2ccc(C(=O)c3ccccc3)cc2)nc1 | TYPE A21 | cytopathic effect | HeLa | >5 µg/mL
CC=NC(=N)c1nc(-c2ccc(OC)cc2)n(C/C=C/c2ccccc2)n1 | TYPE B4 | cytopathic effect | VERO | >100 µg/mL
CSc1nsc(-c2ccc(Cl)cc2Cl)c1C#N | TYPE B1 | plaque count | HEP-2 | >8 µM
Nc1ncnc2c1ncn2[C@@H]1C=C(CO)[C@@H](O)[C@H]1O | TYPE B4 | cytopathic effect | HeLa | ≥40 µg/mL
Cc1ccc(CCCOc2cc(C)c(-c3noc(C(F)F)n3)c(C)c2)nn1 |  | cytopathic effect | HeLa | 0.033–0.659 µg/mL
CSc1nsc(-c2ccccc2Cl)c1C#N | TYPE B1 | plaque count | HEP-2 | >5 µM
CC=NC(=N)c1nc(-c2cccc(OC)c2)n(COCCO)n1 | TYPE B4 | cytopathic effect | HeLa | >10 µg/mL
CC1(CO)CCC(Cn2nnc3c(N)ncnc32)C1(C)C | TYPE B4 | cytopathic effect | HeLa | >40 µg/mL
Cc1ccc(CCCOc2c(C)cc(-c3noc(C)n3)cc2C)nn1 |  | cytopathic effect | HeLa | 0.033–0.659 µg/mL
O=C(CCBr)N1CC[N+]2(CC1)CC[N+]1(CCN(C(=O)CCBr)CC1)CC2 | B3 | cytopathic effect | HeLa | >70 µg/mL
CSc1nsc(-c2ccc(Cl)cc2)c1C#N | TYPE B1 | plaque count | HEP-2 | >5 µM
CC=NC(=N)c1nc(-c2cccc(C)c2)n(COCCO)n1 | TYPE B4 | cytopathic effect | HeLa | >200 µg/mL
CC(=O)OCCOCN1C(C)=CC(N)=[N+](c2ccccc2)S1(=O)=O | TYPE B4 |  | VERO | >400 µg/mL
CS(=O)(=O)c1ccc(Oc2ccc(C(=O)c3ccccc3)cc2)nc1 | TYPE A21 | cytopathic effect | HeLa | 1.3 µg/mL
CC(=O)Oc1ccc(CCCOc2cc(C)c(-c3noc(C)n3)c(C)c2)nn1 |  | cytopathic effect | HeLa | 0.033–0.659 µg/mL
CC1=CC(=O)N(c2ccccc2)S(=O)(=O)N1COCCO | TYPE B4 |  | HeLa | >400 µg/mL
CSc1nsc(-c2ccc3ccccc3c2)c1C#N | TYPE B1 | plaque count | HEP-2 | >20 µM
CCc1ccc(CCCOc2c(C)cc(-c3nnn(C)n3)cc2C)o1 |  | cytopathic effect | HeLa | 0.033–0.659 µg/mL
O=[N+]([O-])c1c(Cl)nc(C(F)(F)F)nc1N1CC[N+]2(CC1)CC[N+]1(CCN(c3nc(C(F)(F)F)nc(Cl)c3[N+](=O)[O-])CC1)CC2 | B3 | cytopathic effect | HeLa | >70 µg/mL
CC1(CO)CCC(Cn2ccc(=O)[nH]c2=O)C1(C)C | TYPE B4 | cytopathic effect | HeLa | >200 µg/mL
C#C[C@@H](O)C1=C[C@@H](n2cnc3c(N)ncnc32)[C@H](O)[C@@H]1O | TYPE B4 | cytopathic effect | HeLa | >400 µg/mL
NC1=CC(N)=NS(=O)(=O)N1COCCO | TYPE B4 |  | HeLa | >400 µg/mL
CS(=O)(=O)c1cccnc1Oc1ccc(C(=O)c2ccccc2)cc1 | TYPE A21 | cytopathic effect | HeLa | >10 µg/mL
Cc1cc(OCCCc2ccc(Br)nn2)cc(C)c1-c1noc(C(F)F)n1 |  | cytopathic effect | HeLa | 0.033–0.659 µg/mL
CCOC(=O)/C=C\C=C\[C@H]1O[C@@H](n2ccc(=O)[nH]c2=O)[C@H](O)[C@@H]1O | B4 |  | HeLa | ≥200 µM
COCc1ccc(CCCOc2cc(C)c(-c3noc(C(F)(F)F)n3)c(C)c2)nn1 |  | cytopathic effect | HeLa | 0.033–0.659 µg/mL
CC=NC(=N)c1nc(-c2ccc(OC)cc2)n(COCCO)n1 | TYPE B4 | cytopathic effect | VERO | >100 µg/mL
CC1(CO)CCC(Cc2nc3ncnc(N)c3[nH]2)C1(C)C | TYPE B4 | cytopathic effect | VERO | >10 µg/mL
C=C[C@H](O)C1=C[C@@H](n2cnc3c(N)ncnc32)[C@H](O)[C@@H]1O | TYPE B4 | cytopathic effect | HeLa | >100 µg/mL
CON=C1C[C@H](n2cc(C)c(=O)[nH]c2=O)O[C@@H]1CO |  | cytopathic effect | HeLa | >200 µg/mL
Cc1nc(N2CCCC2)c([N+](=O)[O-])c(N2CC[N+]3(CC2)CC[N+]2(CCN(c4nc(C)nc(N5CCCC5)c4[N+](=O)[O-])CC2)CC3)n1 | B3 | cytopathic effect | HeLa | >70 µg/mL
CCOC(=O)C1=CN(COCCO)S(=O)(=O)NC1=O | TYPE B4 |  | HeLa | >400 µg/mL
Cc1ccc(CCCOc2cc(C)c(-c3noc(C(F)(F)F)n3)c(C)c2)nn1 |  | cytopathic effect | HeLa | 0.033–0.659 µg/mL
CC(=O)OCCOCN1C(=N)/C(=C(\C)O)C(N)=NS1(=O)=O | TYPE B4 |  | VERO | >400 µg/mL
COc1ccc(CCCOc2cc(C)c(-c3noc(C(F)(F)F)n3)c(C)c2)nn1 |  | cytopathic effect | HeLa | 0.033–0.659 µg/mL
CC(=O)OCCOCN1C(=O)C=CN(COCCO)S1(=O)=O | TYPE B4 |  | VERO | >400 µg/mL
CCN(CC)C(=O)N1CCN(c2ncnc(N3CC[N+]4(CC3)CC[N+]3(CCN(c5ncnc(N6CCN(C(=O)N(CC)CC)CC6)c5[N+](=O)[O-])CC3)CC4)c2[N+](=O)[O-])CC1 | B3 | cytopathic effect | HeLa | >70 µg/mL

2 of the rows above, restated:

| structure | strain or isolate | method | cell line | value |
|---|---|---|---|---|
| COCc1ccc(CCCOc2cc(C)c(-c3noc(C(F)(F)F)n3)c(C)c2)nn1 |  | cytopathic effect | HeLa | 0.033–0.659 µg/mL |
| CC(=O)Oc1ccc(CCCOc2cc(C)c(-c3noc(C)n3)c(C)c2)nn1 |  | cytopathic effect | HeLa | 0.033–0.659 µg/mL |